Assay results as given in PubChem BioAssay AID2221 (Broad Institute, 2009).
The list shows a part of the results, in another mix than the full data. Some salts or complexes appear as unconnected parts, following the source record. The source made the active and inactive calls. Rule as the data show it: active = inhibition above about 30%; inconclusive = no clear call, values can overlap the other calls; inactive = below that.

Amino acid sequences for entries named in this document (tags omitted).
UniProt P9WHJ3, whole entry: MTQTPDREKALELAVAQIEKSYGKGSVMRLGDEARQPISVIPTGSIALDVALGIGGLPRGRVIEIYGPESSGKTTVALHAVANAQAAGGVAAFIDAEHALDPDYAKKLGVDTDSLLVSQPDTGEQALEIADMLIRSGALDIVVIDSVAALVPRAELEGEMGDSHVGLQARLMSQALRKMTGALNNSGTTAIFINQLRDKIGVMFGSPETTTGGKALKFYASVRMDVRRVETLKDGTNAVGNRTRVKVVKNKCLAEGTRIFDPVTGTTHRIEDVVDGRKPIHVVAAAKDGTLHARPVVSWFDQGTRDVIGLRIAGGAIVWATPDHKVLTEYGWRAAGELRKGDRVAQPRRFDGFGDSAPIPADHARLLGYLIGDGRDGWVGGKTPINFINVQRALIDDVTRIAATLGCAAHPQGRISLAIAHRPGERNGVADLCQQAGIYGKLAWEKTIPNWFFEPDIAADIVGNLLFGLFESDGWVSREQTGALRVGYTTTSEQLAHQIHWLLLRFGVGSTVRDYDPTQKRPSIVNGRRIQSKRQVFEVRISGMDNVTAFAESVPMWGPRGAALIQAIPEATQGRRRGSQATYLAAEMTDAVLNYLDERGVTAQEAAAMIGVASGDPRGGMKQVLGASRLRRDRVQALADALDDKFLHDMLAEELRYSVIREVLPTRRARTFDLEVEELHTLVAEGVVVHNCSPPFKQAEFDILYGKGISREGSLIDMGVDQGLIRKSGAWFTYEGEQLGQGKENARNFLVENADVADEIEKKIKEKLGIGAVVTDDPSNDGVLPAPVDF

These compounds were tested against Protein RecA (Mycobacterium tuberculosis (strain ATCC 25618 / H37Rv)) (UniProt P9WHJ3) (assay: Mtb RecA intein splicing inhibitors, primary screen, biochemical, fluorescence, HTS (AID 2221;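 also: 0% = vehicle wells and 100% = reference inhibitor control wells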)). Conditions: cell-free RecA intein splicing, stronger effect = higher value, concentration not given here.

Row | Structure (SMILES) | inhibition
1 | O=[As](O)(c1ccccc1Br)c1ccccc1Br | inactive: -0.0357%
2 | CN(C(=O)Cc1ccc(Cl)c(Cl)c1)[C@@H]1CCCC[C@H]1N1CCCC1 | inactive: -1.16%
3 | CC(C)/C=N\N=C(\N)N[N+](=O)[O-] | inactive: -1.66%
4 | COc1ccccc1CNC(=O)COC(=O)C(O)(c1ccccc1)c1ccccc1 | inactive: -1.65%
5 | O=[N+]([O-])c1cc([N+](=O)[O-])c(-c2cnn(-c3ccccc3)c2)c([N+](=O)[O-])c1 | inactive: -0.749%
6 | O=C(/C=C/c1ccccc1)OC1CN2CCC1CC2 (centres undefined) | inactive: 1.19%
7 | CCOC(=O)C(CC)C1=NC(C)(C)Cc2ccccc21.O=[N+]([O-])c1cc([N+](=O)[O-])c(O)c([N+](=O)[O-])c1 (centres undefined) | inactive: 8.07%
8 | O=[N+]([O-])c1cc([N+](=O)[O-])c(Nc2nnnn2CCO)c([N+](=O)[O-])c1 | inactive: 4.72%
9 | CN(C)C1(CNC(=O)c2ccc(S(C)(=O)=O)cc2)CCCCC1 | inactive: -0.55%
10 | COc1cc(C2NCCC3(OCCO3)C2(C)C)cc(OC)c1OC.O=[N+]([O-])c1cc([N+](=O)[O-])c(O)c([N+](=O)[O-])c1 (centres undefined) | inactive: -1.95%
11 | Cc1ccc(C(=O)OC2CN3CCC2CC3)cc1 (centres undefined) | inactive: 1.27%
12 | CC1CCC(C(C)C)C(OP(=O)(Nc2ccccn2)c2ccccc2)C1 (centres undefined) | inactive: 3.42%
13 | Cc1nn(-c2ccccc2)c2c1P(=O)(N1CCOCC1)N(C)C(c1ccccc1)=N2 (centres undefined) | inactive: -1.07%
14 | O=P1(Nc2ccc(Br)cn2)COc2ccccc2OC1 | inactive: -1.9%
15 | O=[As](O)(c1cccs1)c1cccs1 | inactive: -1.14%
16 | Cc1ccc(OCC(=O)OC2CN3CCC2CC3)cc1 (centres undefined) | inactive: 3.42%
17 | Nc1cccc([As](=O)(O)c2ccccc2)c1 | inactive: 0.511%
18 | CP(=O)(Nc1ccc(SC(F)(F)F)cc1)Oc1ccccc1 (centres undefined) | inactive: 0.939%
19 | CCCOc1ccc(NP(C)(=O)Oc2ccc(Cl)cc2)cc1 (centres undefined) | inactive: 2.48%
20 | CN1CCCCC1COC(=O)C1(O)c2ccccc2CCc2ccccc21 (centres undefined) | inactive: 1.71%
21 | COc1ccccc1OP(C)(=O)Nc1c(C)cccc1C (centres undefined) | inactive: 4.14%
22 | O=C(O)COc1ccc([As](=O)(O)O)cc1[N+](=O)[O-] | inactive: 0.461%
23 | Nc1ccccc1[As](=O)(O)c1ccccc1 | inactive: -1.45%
24 | CS(=O)(=O)c1cc([N+](=O)[O-])c2no[n+]([O-])c2c1 | inactive: 5.44%

Row | Structure (SMILES) | inhibition
25 | O=P(Nc1nccs1)(c1ccccc1)c1nc2ccccc2s1 (centres undefined) | inactive: 25.7%
26 | O=P(Nc1nccs1)(Oc1ccccc1)Oc1ccccc1 | inactive: -1.39%
27 | O=C(O)c1cccc(Nc2c([N+](=O)[O-])cc([N+](=O)[O-])cc2[N+](=O)[O-])c1 | active: 81.7%
28 | CCOP1(=S)c2c(C)nn(CCC#N)c2N=C(c2ccccc2F)N1C (centres undefined) | inactive: 1.16%
29 | CN(C(=O)Cc1ccc(Cl)c(Cl)c1)[C@H]1CC[C@@]2(CCCO2)C[C@@H]1N1CCCC1 | inactive: 2.28%
30 | CC1=NCCc2c1[nH]c1ccccc21.O=[N+]([O-])c1cc([N+](=O)[O-])c(O)c([N+](=O)[O-])c1 | inactive: -11.6%
31 | CN(C)C(=O)c1cc([N+](=O)[O-])cc2c1-c1c(cc([N+](=O)[O-])cc1[N+](=O)[O-])C2=O | inactive: 4.59%
32 | O=[N+]([O-])c1ccc2c(c1)nnn2O | inactive: -1.59%
33 | CN(C(=O)Cc1ccccc1)[C@@H]1CC[C@]2(CCCO2)C[C@H]1N1CCCC1 | inactive: -3.59%
34 | N#CCCN(C(=O)COC(=O)C(O)(c1ccccc1)c1ccccc1)c1ccc(F)cc1 | inactive: 6.9%
35 | NC(=O)Nc1ccc([As](=O)(O)O)cc1 | inactive: 0.865%
36 | CCOC(=O)c1ccc(NP(C)(=O)Oc2cc(C)cc(C)c2)cc1 (centres undefined) | inactive: 1.95%
37 | Cc1cc(C)cc(OP(C)(=O)Nc2ccc(C)cc2C)c1 (centres undefined) | inactive: -0.548%
38 | O=[As](O)(c1cccc(O)c1)c1cccc(O)c1 | inactive: -3.84%
39 | Cc1cccc(OCC(=O)OC2CN3CCC2CC3)c1 (centres undefined) | inactive: 2.05%
40 | COc1ccccc1OP(C)(=O)Nc1cccc(Br)c1 (centres undefined) | inactive: 11.6%
41 | COc1cc(C(=O)NCC2(N3CCOCC3)CCCCC2)cc(Cl)c1OC(C)C | inactive: 2.81%
42 | O=[As](O)(O)c1cccnc1 | inactive: 0.288%
43 | O=C(OC1CN2CCC1CC2)c1ccc(Cl)cc1 (centres undefined) | inactive: 7.41%
44 | CCOP(=O)(Nc1cccc2ccccc12)OCC | inactive: 2.32%
45 | CCCOP(=S)(Nc1nc(N)cc(=O)[nH]1)OCCC | inactive: 0.228%
46 | Cc1ccc(C)c(NP(C)(=O)Oc2ccccc2)c1 (centres undefined) | inactive: 0.909%
47 | Nc1cccc2c([As](=O)(O)O)cccc12 | inactive: 25.1%
48 | Cc1ccc(NCCc2c([N+](=O)[O-])cc([N+](=O)[O-])cc2[N+](=O)[O-])cc1 | inactive: 6.31%

Row | Structure (SMILES) | inhibition
49 | CP(=O)(Nc1cccc(Br)c1)Oc1ccccc1 (centres undefined) | inactive: 3.91%
50 | Cc1cc(C)cc(OP(C)(=O)Nc2ccccn2)c1 (centres undefined) | inactive: 0.558%
51 | CP(=O)(Nc1ccccc1F)Oc1ccccc1 (centres undefined) | inactive: 1.92%
52 | CC(C)c1ccc(OP(C)(=O)Nc2ccc(SC(F)(F)F)cc2)cc1 (centres undefined) | inactive: -0.386%
53 | CC(C)(C)C(=O)NC(Sc1ccccc1)C(Cl)(Cl)Cl (centres undefined) | inactive: 0.826%
54 | CCOc1ccc(C2=NCC(CBr)S2)cc1 (centres undefined) | inactive: 0.387%
55 | O=P1(Nc2nc3ccc(Cl)cc3s2)COc2ccccc2O1 (centres undefined) | inactive: -2.72%
56 | CC(=O)Nc1ccc(Oc2c([N+](=O)[O-])cc([N+](=O)[O-])cc2[N+](=O)[O-])cc1 | inactive: 13.5%
57 | COc1ccc2c(c1O)-c1c(O)c(OC)cc3c1[C@H](C2)[N+](C)(C)CC3.O=[N+]([O-])c1cc([N+](=O)[O-])c([O-])c([N+](=O)[O-])c1[O-] | inactive: -1.47%
58 | CC(=O)Nc1ccc([As](=O)(O)O)c(O)c1 | inactive: -0.924%
59 | O=C(OC1CN2CCC1CC2)c1ccc([N+](=O)[O-])cc1 (centres undefined) | inactive: -0.261%
60 | CC(=O)c1ccc(N2CC2c2ccncc2)cc1 (centres undefined) | inactive: -1.1%
61 | C[C@@H]1C=CCP(=O)(Oc2ccccc2)O1 (some centres undefined) | inactive: 0.0669%
62 | C[C@H]1OP(=O)(Oc2ccccc2)C[C@@H]2O[C@@H]21 (some centres undefined) | inactive: 1.17%
63 | O=C(OCCN1CCN(CCOCc2ccccc2)CC1)C(O)(c1ccccc1)c1ccccc1 | inactive: 11.5%
64 | CCOC(=O)c1ccc(NP(C)(=O)Oc2ccc(F)cc2)cc1 (centres undefined) | inactive: -0.583%
65 | O=C(NC1CCS(=O)(=O)C1)NP(=S)(Oc1ccccc1)Oc1ccccc1 (centres undefined) | inactive: 2.64%
66 | CCNC(=S)/N=C(\N)N[N+](=O)[O-] | inactive: 0.409%
67 | CCOC(=O)NC(Sc1ccccc1)C(Cl)(Cl)Cl (centres undefined) | inactive: -0.945%
68 | Cc1ccc(NP(=O)(Oc2cccc(C)c2)Oc2cccc(C)c2)nc1 | inactive: 10.9%
69 | c1ccc(-c2nn[nH]n2)c(-c2nn[nH]n2)c1 | inactive: -2.37%
70 | CP(=O)(Nc1ccccc1)Oc1ccc(F)cc1 (centres undefined) | inactive: 0.344%
71 | CN(C)C(=O)Oc1noc2ccccc12 | inactive: -0.749%
72 | CCCCCOc1ccc(NP(C)(=O)Oc2ccc(Cl)cc2Cl)cc1 (centres undefined) | inactive: -2.58%

Row | Structure (SMILES) | inhibition
73 | O=[N+]([O-])c1cc([N+](=O)[O-])c(OC2CCCCC2O)c([N+](=O)[O-])c1 (centres undefined) | inactive: 7.9%
74 | Cc1ccccc1OP(=O)(Nc1ccccn1)Oc1ccccc1C | inactive: 12.4%
75 | Cc1ccc(OP(=O)(Nc2ccccn2)Oc2ccc(C)cc2)cc1 | inactive: 2.74%
76 | CC(=O)NC(SC(=S)N(CC(C)C)CC(C)C)C(Cl)(Cl)Cl (centres undefined) | inactive: -0.633%
77 | COC(=O)c1cc2c(s1)N=C(c1ccccc1)N(C)P2(=O)N1CCOCC1 (centres undefined) | inactive: 2.83%
78 | CCC(=O)N1C2C3N(C(=O)CC)C1C1N(C(=O)CC)C(C(N1C(=O)CC)N3C(=O)CC)N2C(=O)CC | inactive: -1.86%
79 | CCN(CC)CCCOC(=O)C(O)(c1ccccc1)C1CCCCC1 (centres undefined) | inactive: -0.532%
80 | O=C(OC1CN2CCC1CC2)c1ccccc1 (centres undefined) | inactive: -7.04%
81 | C[C@H]1OP(=O)(Oc2ccccc2)[C@H](O)[C@H](O)[C@H]1N=[N+]=[N-] (some centres undefined) | inactive: 2.27%
82 | O=P(Nc1nc2ccccc2s1)(c1ccccc1)c1ccccc1 | inactive: 4.01%
83 | CN(C)CCOC(=O)C(O)(c1ccccc1)C1CCCCC1 (centres undefined) | inactive: 0.816%
84 | COc1ccc(NP(C)(=O)Oc2ccccc2OC)cc1 (centres undefined) | inactive: -0.267%
85 | COc1ccc(OP(C)(=O)Nc2cccc(Br)c2)cc1 (centres undefined) | inactive: -3.83%
86 | CN(C)C1(CNC(=O)c2ccc(Cl)c(S(N)(=O)=O)c2)CCCCC1 | inactive: -0.301%
87 | O=P(Nc1ccccn1)(c1ccc(Br)cc1)c1ccc(Br)cc1 | inactive: 2.2%
88 | Nc1ccc([As](=O)(O)c2ccc([N+](=O)[O-])cc2)cc1 | inactive: 1.9%
89 | C(Cc1nn[nH]n1)Cc1nn[nH]n1 | inactive: -1.71%
90 | O=C(OC1CN2CCC1CC2)c1cccc(Cl)c1 (centres undefined) | inactive: -3.92%
91 | O=[N+]([O-])c1ncn(CCn2cnc([N+](=O)[O-])n2)n1 | inactive: 0.37%
92 | CC(=O)NC(SC(=S)N(C)C)C(Cl)(Cl)Cl (centres undefined) | inactive: -2%
93 | O=[N+]([O-])c1ccc(OP2(=O)COCCO2)cc1 (centres undefined) | inactive: -1.62%
94 | O=[N+]([O-])c1ccc(O)c(/C=N/Nc2ccc([N+](=O)[O-])cc2[N+](=O)[O-])c1 | inactive: 8.6%
